# Screening data, single-dose tests

From ChEMBL document CHEMBL3988442, “University of Dundee, Small-Polar-MMV Screening Library” (2021).

Mtb cholesterol medium: 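Growth of Mycobacterium tuberculosis over 4 days (cholesterol / DPPC medium with tyloxapol); the read-out is not stated. Tested at 500 µM. The record gives no direction; compounds that gave an IC50 in retests scored well above the rest, so higher reads as more growth inhibition. Of about 18,000 compounds tested this way, about 900 (5%) reached 50% or more in at least one test.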
Mtb glucose medium: 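Whole-cell growth test on Mycobacterium tuberculosis, read after 3 days in glucose-containing 7H9 medium; the read-out is not stated. Tested at 500 µM. Direction is inferred from retests: higher values go with more growth inhibition. Size under these conditions: about 18,000 compounds, about 1,400 of them at 50% or above in at least one test.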

Results are given as percent effect. How 0% and 100% were set is not recorded. Most values in the screen are low, and negative values occur. Many other results are left out here, so strong results are more common than in the screen. A dash means the value is not listed here; it may have been measured.

{"structure": "O=C(c1cn[nH]c1)N1CCC(O)(CN2CCCC2)CC1", "Mtb glucose medium": 4.528}
{"structure": "Cn1nc(C(N)=O)cc1C(F)(F)F", "Mtb glucose medium": 5.468}
{"structure": "NCc1ccc(N2CCNC2=O)cc1", "Mtb glucose medium": -3.356}
{"structure": "CNS(=O)(=O)c1ccc(C(=O)NCC(C)(C)N(C)C)o1", "Mtb glucose medium": -12.34}
{"structure": "Cc1ccc(S(=O)(=O)CCC(=O)NC(N)=O)cc1", "Mtb cholesterol medium": 78.75, "Mtb glucose medium": 92.83}
{"structure": "CC(CNC(=O)c1cn2ccccc2n1)N1CCCC1", "stereo": "centres unmarked", "Mtb glucose medium": 8.527}
{"structure": "Nc1nccnc1C(=O)N(CC1CC1)c1ccccc1", "Mtb glucose medium": 1.849}
{"structure": "NCC(O)c1ccc(F)c(F)c1", "stereo": "centres unmarked", "Mtb cholesterol medium": 15.62, "Mtb glucose medium": 36.11}
{"structure": "CCCC(=O)N(C)CCC(N)C(C)C", "stereo": "centres unmarked", "Mtb cholesterol medium": 1.35}
{"structure": "Cc1cc(C2CCCN2C(=O)[C@@H]2CCCN2)on1", "stereo": "some centres unmarked", "Mtb glucose medium": -7.496}
{"structure": "NCc1ccc(-c2cccnc2)o1", "Mtb glucose medium": 20.85}
{"structure": "CCOc1ccccc1NC(=O)Cn1ccnc1", "Mtb cholesterol medium": -5.981}
{"structure": "CC(C)Nc1cccc(C(=O)NC(C)CO)c1", "stereo": "centres unmarked", "Mtb cholesterol medium": -8.718}
{"structure": "CCOC(=O)CNC(=O)c1ccc2c(c1)OCCO2", "Mtb cholesterol medium": 61.92, "Mtb glucose medium": 48.91}
{"structure": "CCC(=O)c1cccc(S(=O)(=O)NCC(C)(C)N)c1", "Mtb glucose medium": 30.5}
{"structure": "NC1CCCN(CCS(=O)(=O)c2ccc(Br)cc2)C1", "stereo": "centres unmarked", "Mtb cholesterol medium": 24.9, "Mtb glucose medium": 20.09}
{"structure": "Cn1cc(C(N)C2(CO)CCC2)cn1", "stereo": "centres unmarked", "Mtb glucose medium": 7.738}
{"structure": "CN1CCC(N(C)C(=O)CCN)CC1", "Mtb cholesterol medium": 6.2}
{"structure": "N#Cc1ncc(N)cc1Cl", "Mtb glucose medium": 29.49}
{"structure": "CC1Cc2ccccc2N1S(C)(=O)=O", "stereo": "centres unmarked", "Mtb cholesterol medium": 15.59, "Mtb glucose medium": 32.82}
{"structure": "O=C(CSCCO)Nc1ncc(-c2ccccc2)s1", "Mtb cholesterol medium": 61.03, "Mtb glucose medium": 71.05}
{"structure": "CN(CCNC(=O)Nc1cn[nH]c1)C1CCCCC1", "Mtb glucose medium": -0.2909}
{"structure": "COc1cc(CN)cc(C)n1", "Mtb cholesterol medium": 12.9}
{"structure": "NCC1CCN(CCc2ccccc2)C1", "stereo": "centres unmarked", "Mtb cholesterol medium": 64.95, "Mtb glucose medium": 62.23}
{"structure": "CCN1CCN(CC(=O)Nc2c(C)cccc2C)CC1", "Mtb glucose medium": 6.605}
{"structure": "CNC(=O)NC(=O)CCN1CCN(S(C)(=O)=O)CC1", "Mtb cholesterol medium": 50.39, "Mtb glucose medium": 65.96}
{"structure": "CNC(=O)CN1CCN(Cc2cncn2C(C)C)CC1", "Mtb glucose medium": 2.54}
{"structure": "CC(CO)Sc1ccc(S(=O)(=O)C(F)F)cc1", "stereo": "centres unmarked", "Mtb cholesterol medium": 73.96, "Mtb glucose medium": 56.44}
{"structure": "O=C1CN(Cc2ccccc2)C(=O)CN1", "Mtb glucose medium": 5.3}

For reference, 4 entries once more:

structure	Mtb cholesterol medium	Mtb glucose medium
O=C(CSCCO)Nc1ncc(-c2ccccc2)s1	61.03%	71.05%
Cn1cc(C(N)C2(CO)CCC2)cn1 (centres unmarked)	-	7.738%
Cc1cc(C2CCCN2C(=O)[C@@H]2CCCN2)on1 (some centres unmarked)	-	-7.496%
CCOc1ccccc1NC(=O)Cn1ccnc1	-5.981%	-